## HIV-1 NL4-3 point mutations in Vif: replication capacity

Protein: Vif of HIV-1 NL4-3, numbered from its first residue. The source prints no sequence; the chain below is taken from UniProt P12504, a closely related isolate, and fits the source at the 145 positions it covers.
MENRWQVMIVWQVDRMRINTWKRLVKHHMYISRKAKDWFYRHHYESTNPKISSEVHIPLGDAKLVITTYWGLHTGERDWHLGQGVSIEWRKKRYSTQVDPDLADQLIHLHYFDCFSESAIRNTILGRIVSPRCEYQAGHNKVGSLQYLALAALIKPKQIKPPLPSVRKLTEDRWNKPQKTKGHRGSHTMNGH
"Other frame" gives the effect on an overlapping gene as the source lists it; other overlaps (genes, RNA elements) are not shown.

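Random point mutant libraries of HIV-1 NL4-3, one for each of seven fragments, were passaged in CEM T lymphocytes. The RC index is the frequency of a change after passage round 2 divided by its frequency in the plasmid library.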

RC index: lower means poorer replication; rough cut-offs are 0.1 (lethal) and 0.2 (tolerated). A change reads original residue, position, new residue. Input reads are the counts in the plasmid library. An index over 1, which the authors read as above wild type, was rare (1.9% of all changes in the genome).

mutation | base | other frame | input reads | replication capacity index
N3I | A5048T | integrase K273N | 308 | 0.0729
S52R | T5196A | none | 255 | 0.0201
D78E | C5274A | none | 137 | 0.0680
P162S | C5524T | none | 290 | 0.0546
K36M | A5147T | none | 253 | 0.0101
G185R | G5593A | Vpr R12K | 486 | 0.713
Q97L | A5330T | none | 325 | 0.0335
M29V | A5125G | none | 163 | 0.0784
S144A | T5470G | none | 81 | 0.0169
H110L | A5369T | none | 213 | 0.0170
V65L | G5233C | none | 71 | 0.0438
G191V | G5612T | Vpr W18C | 180 | 0.133
S32T | T5134A | none | 331 | 0.232
G60W | G5218T | none | 284 | 0.202
F115L | T5385A | none | 351 | 0.0275
H187R | A5600G | Vpr silent | 642 | 0.0392
D61N | G5221A | none | 512 | 0.0910
R184G | A5590G | Vpr Q11R | 388 | 0.159
Q146K | C5476A | none | 89 | 0.138
G75E | G5264A | none | 148 | 0.294
H139R | A5456G | none | 241 | 0.0150
D172N | G5554A | none | 146 | 0.260
H56Y | C5206T | none | 600 | 0.115
S116T | T5386A | none | 223 | 0.0216
Q146H | G5478C | none | 89 | 0.0711
I128T | T5423C | none | 177 | 0.0409
Y40F | A5159T | none | 283 | 0.0632
V13A | T5078C | integrase silent | 199 | 0.0899
S186I | G5597T | Vpr E13D | 202 | 0.0978
S52N | G5195A | none | 252 | 0.0812
L59P | T5216C | none | 151 | 0.154
L148M | T5482A | none | 260 | 0.0304
T123S | A5407T | none | 133 | 0.0363
P164T | C5530A | none | 76 | 0.0833
V7L | G5059C | integrase G277A | 75 | 0.120
H80P | A5279C | none | 294 | 0.0370
K50E | A5188G | none | 424 | 0.0724
V85L | G5293C | none | 35 | 0.222
D113G | A5378G | none | 190 | 0.0572
D104G | A5351G | none | 186 | 0.0584
I107V | A5359G | none | 136 | 0.0355
S165G | A5533G | none | 260 | 0.0365
Y44H | T5170C | none | 172 | 0.119
H110Q | C5370A | none | 162 | 0.0522
V129A | T5426C | none | 240 | 0.0553
V7M | G5059A | integrase G277D | 270 | 0.0831
H139D | C5455G | none | 128 | 0.00943
K168E | A5542G | none | 188 | 0.101
D101V | A5342T | none | 150 | 0.0311
Q12L | A5075T | integrase silent | 301 | 0.0425
H56L | A5207T | none | 302 | 0.0423
D104N | G5350A | none | 152 | 0.151
S186R | A5596C | Vpr E13A | 41 | 0.131
D172V | A5555T | none | 321 | 0.0641
F115I | T5383A | none | 201 | 0.0240
H187L | A5600T | Vpr silent | 781 | 0.0437
W5R | T5053A | integrase M275K | 432 | 0.0364
L102P | T5345C | none | 241 | 0.0967
M1T | T5042C | integrase silent | 329 | 0.0546
K160R | A5519G | none | 167 | 0.0947
P161Q | C5522A | none | 246 | 0.0708
P131L | C5432T | none | 234 | 0.0258
M189L | A5605C | Vpr N16T | 135 | 0.0266

A selection of 3 entries from above:

With Q146H (base G5478C, input reads 89) the assay gave 0.0711.
With P164T (base C5530A, input reads 76) the assay gave 0.0833.
With G191V (base G5612T, other frame Vpr W18C, input reads 180) the assay gave 0.133.

Since each clone held several changes (about five per kb), neutral changes can read low. Nucleotide positions follow pNL4-3.

Reference: Al-Mawsawi et al. 2014, doi:10.1186/s12977-014-0124-6.